From paper PMC3445454, “Broad and Cross-Clade CD4^+ T-Cell Responses Elicited by a DNA Vaccine Encoding Highly Conserved and Promiscuous HIV-1 M-Group Consensus Peptides” (PLoS ONE, 2012) come the findings set out here.

By UniProt entry, the sequences of proteins in these tests, tags left out. Where a name states a change or a piece, a line headed by the entry shows the natural chain unless it says otherwise. Residues count along the entry.
UniProt P20036, whole entry A42M/L97S: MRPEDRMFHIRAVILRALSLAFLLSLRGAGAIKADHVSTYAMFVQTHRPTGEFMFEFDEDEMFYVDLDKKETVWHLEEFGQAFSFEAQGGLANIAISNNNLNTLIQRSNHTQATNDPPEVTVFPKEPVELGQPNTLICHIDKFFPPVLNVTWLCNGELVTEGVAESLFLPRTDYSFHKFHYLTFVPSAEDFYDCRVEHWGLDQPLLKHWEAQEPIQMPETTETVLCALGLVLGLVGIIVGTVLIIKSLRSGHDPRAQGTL
UniProt P01903, 26-254 limits assumed: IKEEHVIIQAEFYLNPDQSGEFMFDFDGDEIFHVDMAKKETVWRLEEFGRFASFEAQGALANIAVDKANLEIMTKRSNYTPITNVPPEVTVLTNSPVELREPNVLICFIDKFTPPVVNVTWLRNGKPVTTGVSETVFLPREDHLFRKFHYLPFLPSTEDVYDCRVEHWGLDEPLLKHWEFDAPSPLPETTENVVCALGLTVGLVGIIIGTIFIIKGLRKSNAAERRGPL
UniProt P79483, 30-266 R40L/Y55F/D57E/Y59H/F66Y/L67A/T80R/V86D/S89Y/R103Q/A212P/R218S limits assumed: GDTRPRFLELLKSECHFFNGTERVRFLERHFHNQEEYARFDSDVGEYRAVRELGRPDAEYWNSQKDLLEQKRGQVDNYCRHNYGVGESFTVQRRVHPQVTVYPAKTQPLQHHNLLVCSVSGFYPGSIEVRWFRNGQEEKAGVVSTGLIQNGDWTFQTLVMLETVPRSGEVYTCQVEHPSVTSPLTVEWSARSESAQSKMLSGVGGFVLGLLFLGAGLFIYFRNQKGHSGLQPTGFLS

Common to all, as to test: biochemical
Experiment [1] has as its target T1, HLA-DP DPA1*01:03/DPB1*02:01 (Homo sapiens, UniProt P04440+P20036, A65V/A84D/A85E/K98E).
T1 sequence (P20036 29-260): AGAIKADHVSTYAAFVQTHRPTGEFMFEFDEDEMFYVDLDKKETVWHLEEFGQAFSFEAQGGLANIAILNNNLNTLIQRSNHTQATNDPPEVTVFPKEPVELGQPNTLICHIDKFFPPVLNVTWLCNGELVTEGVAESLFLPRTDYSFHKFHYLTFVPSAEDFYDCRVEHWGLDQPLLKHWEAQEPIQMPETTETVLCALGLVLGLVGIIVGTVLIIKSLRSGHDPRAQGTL
T1 sequence (P04440 30-258 A65V/A84D/A85E/K98E): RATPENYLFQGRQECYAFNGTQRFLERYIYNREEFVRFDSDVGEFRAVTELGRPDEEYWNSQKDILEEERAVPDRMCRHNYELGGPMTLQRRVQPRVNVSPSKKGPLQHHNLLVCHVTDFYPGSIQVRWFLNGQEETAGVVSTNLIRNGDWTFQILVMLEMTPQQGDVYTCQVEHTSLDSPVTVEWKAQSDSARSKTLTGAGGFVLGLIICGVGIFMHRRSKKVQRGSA
In kind it is binding.

Experiment [2] concerns the target HLA-DQ DQA1*01:04/DQB1*05:03 (Homo sapiens, UniProt P01909+P01920, A157S/A221T/A45G/A70V/C70R/D25G/E106S/E118A/E183D/E77G/F83G/G63E/H151Q/H199R/H252R/H253Q/I129T/I235V/I88M/INS77G/K197Q/L107V/L117V/L119Y/L178F/L71W/L74F/L85Q/L91A/L98M/M46L/N214S/P87R/Q116E/Q256R/Q57E/Q76K/R102G/R240Q/R75S/R78G/S102Y/S185I/S41F/S97I/T103A/T109R/T121G/T122I/T172A/T86R/V148I/V68A/V73E/Y34C/Y58G/Y62H).

Experiment [3] has as its target HLA-DQ DQA1*01:03/DQB1*06:03 (Homo sapiens, UniProt P01909+P01920, A157G/A45G/C70R/E118A/E183D/E77G/F83G/G63E/H199R/H252R/H253Q/I129T/I235V/I88M/INS77G/K197Q/L117V/L119F/L178F/L71W/L74F/L85Q/L91A/L98M/N214S/P87R/Q116E/Q76K/R102G/R240Q/R64K/R75S/R78G/S102Y/S152A/S185I/S41F/S97I/T121G/T122I/T172A/T86R/V68A/V73E/Y34C/Y48F/Y58L/Y62H).
For experiment [4], the target named is HLA-DQ DQA1*01:01/DQB1*05:01 (Homo sapiens, UniProt P01909+P01920, A157S/A45G/A70V/C70R/D89V/E106S/E118A/E183D/E77G/F83G/G63E/H151Q/H199R/H252R/H253Q/I129T/I235V/I88M/INS77G/K197Q/L107V/L117V/L119Y/L178F/L71W/L74F/L85Q/L91A/L98M/M46L/N214S/P87R/Q116E/Q256R/Q57E/Q76K/R102G/R240Q/R75S/R78G/S102Y/S185I/S41F/S97I/T103A/T109R/T121G/T122I/T172A/T86R/V148I/V68A/V73E/Y34C/Y58G/Y62H).

Experiment [5] deals with HLA-DP DPA1*03:01/DPB1*04:02 (Homo sapiens, UniProt P04440+P20036, A42M/A65V/A84D/A85E/L207M/L97S).
For experiment [6], the target named is HLA-DQ DQA1*01:02/DQB1*06:02 (Homo sapiens, UniProt P01909+P01920, A157G/A45G/C70R/E118A/E183D/E77G/F83G/G63E/H151Q/H199R/H252R/H253Q/I129T/I235V/I88M/INS77G/K197Q/L117V/L119F/L178F/L71W/L74F/L85Q/L91A/L98M/N214S/P87R/Q116E/Q76K/R102G/R240Q/R75S/R78G/S102Y/S185I/S41F/S97I/T121G/T122I/T172A/T86R/V229M/V68A/V73E/Y34C/Y41F/Y58L). It counts as binding.
Experiment [7] addresses HLA-DQ DQA1*05:01/DQB1*02:01 (Homo sapiens, UniProt P01909+P01920, A45G/A70V/D89A/E106A/E77G/E98D/H199R/L107V/N214S/P84L/P87L/T103K/T109R/T172A/T60S/V78E/V99I/Y58L/Y62S/Y69I/Y79F).
Experiment [8] deals with HLA-DQ DQA1*03:01/DQB1*03:02 (Homo sapiens, UniProt P01909+P01920, A209T/A45G/C70Q/D89A/DUP78-78/E183D/E77G/F237L/G63E/H199R/I129T/K197E/L178F/L74F/L98V/Q57E/Q76R/S185I/S97I/T217I/T49S/V73L/Y58L). In kind it is binding.
The target in a further experiment is HLA-DR DRB3*02:02 (Homo sapiens, UniProt P01903+P79483, A212P/D57E/F66Y/L67A/R103Q/R218S/R40L/S89Y/T80R/V86D/Y55F/Y59H). In kind it is binding.
The target in experiment [9] is HLA-DQ DQA1*02:01/DQB1*02:02 (Homo sapiens, UniProt P01909+P01920, A45G/A70V/C70K/D167G/D89A/E106A/E183D/E77G/E98D/F237L/F77L/G63E/H199R/I129T/K197E/L107V/L178F/L74F/N214S/P84L/P87L/Q57E/Q76R/R75H/S185I/S97I/T103K/T109R/T172A/T60S/V73L/V78E/V99I/Y48F/Y58L/Y62S/Y69I/Y79F). It counts as binding.

Regarding `CSCC[C@H](NC(=O)[C@@H]1CCCN1C(=O)[C@H](CCCNC(=N)N)NC(=O)[C@H](CC(C)C)NC(=O)[C@@H]1CCCN1C(=O)[C@@H](NC(=O)[C@H](CCC(N)=O)NC(=O)[C@@H]1CCCN1C(=O)[C@H](CCCNC(=N)N)NC(=O)[C@@H](NC(=O)[C@@H]1CCCN1C(=O)[C@H](Cc1ccccc1)NC(=O)CN)C(C)C)C(C)C)C(=O)N[C@H](C(=O)N[C@@H](Cc1ccc(O)cc1)C(=O)N[C@@H](CCCCN)C(=O)NCC(=O)N[C@@H](C)C(=O)N[C@@H](Cc1ccccc1)C(=O)N[C@@H](CC(=O)O)C(=O)N[C@@H](CC(C)C)C(N)=O)[C@@H](C)O` [nef(67-87)], the IC50 is 0.058 µM in experiment [1]; 13.6 µM in experiment [2]; 5.94 µM in [3]; 7.86 µM in [4]; 0.165 µM in [5]; 19.9 µM in experiment [6]. In addition, the IC50 in experiment [7] was found to be 6.46 µM; in [8] it was 7.7 µM; on HLA-DR DRB3*02:02, 15.1 µM; in [9] it was 18.8 µM.
`CC[C@H](C)[C@H](NC(=O)[C@@H](NC(=O)[C@H](CCC(=O)O)NC(=O)[C@@H]1CCCN1C(=O)[C@@H](N)CO)C(C)C)C(=O)N1CCC[C@H]1C(=O)N[C@@H](CCSC)C(=O)N[C@@H](Cc1ccccc1)C(=O)N[C@@H](CO)C(=O)N[C@@H](C)C(=O)N[C@@H](CC(C)C)C(=O)N[C@@H](CO)C(=O)N[C@@H](CCC(=O)O)C(=O)NCC(=O)N[C@@H](C)C(=O)N[C@H](C(N)=O)[C@@H](C)O` [p24(33-48)]: the IC50 was 2.99 µM in experiment [1]; 6.25 µM in experiment [2]; 0.0075 µM in experiment [3]; 5.41 µM in experiment [4]; 3.95 µM in [5]; 5.96 µM in [6]. Also, the IC50 is 0.799 µM in experiment [7], 0.645 µM in experiment [8], 3.92 µM at HLA-DR DRB3*02:02 and 1.69 µM in experiment [9].
As for `CC[C@H](C)[C@H](NC(=O)[C@H](CCC(=O)O)NC(=O)CN)C(=O)N[C@@H](Cc1ccc(O)cc1)C(=O)N[C@@H](CCCCN)C(=O)N[C@@H](CCCNC(=N)N)C(=O)N[C@@H](Cc1c[nH]c2ccccc12)C(=O)N[C@H](C(=O)N[C@H](C(=O)N[C@@H](CC(C)C)C(=O)NCC(=O)N[C@@H](CC(C)C)C(=O)N[C@@H](CC(N)=O)C(=O)N[C@@H](CCCCN)C(=O)N[C@H](C(=O)N[C@H](C(=O)N[C@@H](CCCNC(=N)N)C(=O)N[C@@H](CCSC)C(=O)N[C@@H](Cc1ccc(O)cc1)C(N)=O)C(C)C)[C@@H](C)CC)[C@@H](C)CC)[C@@H](C)CC` [p24(127-145)], the half-inhibitory concentration (IC50) turned out to be 0.23 µM in experiment [1]; 5.13 µM in [2]; 0.0017 µM in experiment [3]; 3.35 µM in experiment [4]; 0.134 µM in experiment [5]; 0.473 µM in experiment [6]. In addition, the IC50 in [7] was 7.8 µM; in [8], 13 µM; against HLA-DR DRB3*02:02, 0.321 µM; in experiment [9] it was 24.7 µM.
